Test results as given in ChEMBL document CHEMBL4622924.
Calls of active or inactive are those of the source. No cut-off for these calls is given here.

Legend:
[1] = tested on: Mus musculus; test: Antinociceptive activity in CBA/CaJ mouse model of oxaliplatin-induced neuropathic pain assessed as increase in licking latency at 80 ug/kg, sc administered daily for 4 weeks with 2 days interval per week starting from wednesday and measured on wednesday 24 hrs post-last dose by cold plate test
[2] = species: Homo sapiens; test: Selectivity ratio of IC50 for antagonist activity at human alpha7 nAChR expressed in Xenopus laevis oocytes to IC50 for antagonist activity at human alpha9alpha10 nAChR expressed in Xenopus laevis oocytes

C[C@@H](O)[C@@H]1NC(=O)[C@@H]2CSSC[C@@H]3NC(=O)[C@H](CCC(N)=O)NC(=O)[C@H](Cc4ccc(O)c(I)c4)NC(=O)[C@H](CCCNC(=N)N)NC(=O)[C@H](CSSC[C@H](NC(=O)CNC(=O)[C@@H](N)CCC(=O)NCCCC[C@H](C(=O)O)NC(=O)[C@H](Cc4ccc(O)cc4)NC3=O)C(=O)N2)NC(=O)[C@H](CCCNC(=N)N)NC(=O)[C@@H]2CCCN2C(=O)[C@H](CC(=O)O)NC1=O
Activity [1]: Active | Ratio IC50 [2]: 150
